According to publication PMC10846240, “Pharmacokinetic/pharmacodynamic integration of amphenmulin: a novel pleuromutilin derivative against Mycoplasma gallisepticum” (Microbiology Spectrum, 2023):

Experiments:
Type in all cases: cell-based, Mycoplasma gallisepticum
[1] = tested on: M. gallisepticum strain S6; experiment: Static time-kill curves and Sigmoid Emax fit of kill rate
Experimental: Based on the MIC value from broth microdilution method, 7 mL blank medium, 0.2 mL amphenmulin solution, and 0.8 mL M. gallisepticum suspension were taken into 10-mL Celine bottles to make the final mycoplasma count of 10^7 CFU/mL, as well as final concentrations of amphenmulin of 1, 2, 4, 6, 8, 16, 32, and 64 MIC, respectively. Growth control (without drug) and negative control (blank medium) were also set up for culture. Then at 0, 6, 9, 12, 24, 36, and 48 h, 100 µL of each culture was taken for counting using the aforementioned method, with a lower limit of 100 CFU/mL. The experiment was repeated three times.
The efficacy of amphenmulin against M. gallisepticum was measured by the kill rate per unit of time. Considering the growth of M. gallisepticum observed in preliminary experiments, this study selected seven time periods of 0–24, 0–36, 0–48, 6–24, 6–36, 6–48, and 12–48 h to calculate the kill rates of amphenmulin. The Sigmoid Emax model in Phoenix was used to fit the relationship between mean kill rate and drug concentration, which is shown below:
E, kill rate of amphenmulin against M. gallisepticum within a period; E0, change rate of M. gallisepticum in the control group (without drug); Emax, maximum kill rate within a period; Ce, concentration of amphenmulin; EC50, drug concentration at half-maximal kill rate; N, Hill coefficient, reflecting the slope of the kill rate–concentration curve.

M. gallisepticum [2] = experiment: In vitro dynamic model (one-compartment, first-order elimination); conditions: doses of 0.1–1.5 μg/mL
Experimental: According to previous reports ([21][–][23]), an in vitro model compatible with M. gallisepticum growth and amphenmulin pharmacokinetics was developed ([24]). It comprised a reservoir chamber containing fresh, drug-free medium; a reaction chamber with a three-necked flask where amphenmulin interacts with M. gallisepticum, containing 300 mL of medium in the outer chamber (external compartment, EC) and 10 mL of M. gallisepticum culture (10^7 CFU/mL) in a semipermeable membrane chamber (internal compartment, IC); and a waste chamber collecting effluent, which were connected via tubing and controlled by a peristaltic pump (Fig. 2). In this model, the flow rate was calculated as 1.63 mL/min from the reaction chamber volume and amphenmulin’s elimination half-life (T1/2Ke) after intravascular administration in chickens, enabling dynamic changes in drug concentrations that simulate amphenmulin elimination in chickens and its activity against M. gallisepticum. The in vitro elimination of amphenmulin followed first-order kinetics:
where C0 is the initial amphenmulin concentration, C is the amphenmulin concentration at time t, k is the elimination rate constant, and t is the time after dosing. Based on the maximum concentration reached in chickens after oral administration of amphenmulin, six dosing regimens of 0.1, 0.2, 0.5, 0.8, 1.0, and 1.5 µg/mL were designed, administered every 24 h for three times. By injecting the drug into both sides of the dialysis membrane simultaneously, the drug concentrations inside and outside the membrane reached equilibrium rapidly. Samples from the reaction chamber were collected at 0.083, 0.167, 0.25, 0.50, 0.75, 1, 2, 3, 4, 6, 9, 12, 24, 24.08, 25, 30, 36, 48.08, 54, 60, and 72 h after dosing for determination of amphenmulin concentration. […]
The determination of amphenmulin in the medium referenced our laboratory’s method for extracting tiamulin ([25]) and was also detected by the HPLC-MS/MS method mentioned in the PK section.

M. gallisepticum [3] = experiment: PK/PD integration, inhibitory Sigmoid Emax model
Experimental: Phoenix software was used to analyze the in vitro concentration–time data of amphenmulin and calculate the AUC and peak concentration (Cmax), which were combined with MIC to obtain PK/PD parameters. Concurrently, the anti-mycoplasma effect was derived from the dynamic time–kill curve, which was analyzed with the PK/PD index using an inhibitory Sigmoid Emax model as follows:
E=E0−(E0−Emax)×CeN/EC50N+CeN
E, anti-mycoplasma effect, the change in M. gallisepticum counts during 24 h of cultivation; E0, M. gallisepticum change in control (without drug); Emax, maximal effect produced by amphenmulin against M. gallisepticum during 24 h; Ce, PK/PD parameters (AUC/MIC or Cmax/MIC); EC50, the Ce value needed to produce 50% of maximal effect; N, Hill coefficient, the slope of the fitted curve.

Compound: C=C[C@]1(C)C[C@@H](OC(=O)CSc2ccccc2N)[C@]2(C)[C@H](C)CC[C@]3(CCC(=O)[C@H]32)[C@@H](C)[C@@H]1O [amphenmulin, 22-(2-amino-phenylsulfanyl)-22-deoxypleuromutilin]
- Hill′s slope ([1]; period 0–24 h): 0.9238
- Hill′s slope ([1]; period 0–36 h): 0.4264
- Hill′s slope ([1]; period 0–48 h): 0.3760
- Hill′s slope ([1]; period 6–24 h): 2.7101
- Hill′s slope ([1]; period 6–36 h): 2.9068
- Hill′s slope ([1]; period 6–48 h): 0.4175
- Hill′s slope ([1]; period 12–48 h): 0.2919
- AUC at 0–24 h (M. gallisepticum [2]): 0.34 to 6.19 µg·h/mL
- AUC at 24–48 h (M. gallisepticum [2]): 0.57 to 7.69 µg·h/mL
- AUC at 48–72 h (M. gallisepticum [2]): 0.62 to 8.23 µg·h/mL
- Hill′s slope (M. gallisepticum [3]; index AUC24 h/MIC): 3.1997
- Hill′s slope (M. gallisepticum [3]; index Cmax/MIC): 1.3842
